A mixed list of measured activities; the numbers were collected in NIAID ChemDB.

All rows: cytotoxicity tests; measure: CC50

CCn is the concentration with n% toxicity to the cells. An empty or dashed field is not shown. Neighbouring rows are from separate reports.

SMILES	setting	read by	cell line	value
O=C(O)P(=O)(O)O			HSB-2	274 µg/mL
Cc1nccc2c(C)c3sc4ccccc4c3cc12			VERO	1.03 µg/mL
C1=C(c2nc(-c3ccccn3)no2)c2ccccc2C12CCN(CC1CCCO1)CC2		resazurin	A549	56.3 µM
Nc1ncnc2c1ncn2[C@@H]1O[C@@H](CO)CC1F			PBM	>100 µM
Cc1cc(C)nc(NC(=O)NC(=O)c2c(F)cccc2F)n1		MTS	MDCK	>300 µM
Cc1cn([C@H]2C[C@H](N=[N+]=[N-])[C@@H](CO)O2)c(=O)[nH]c1=O			CMBC	60 µM
O=c1[nH]c(=O)n([C@@H]2O[C@@H](CO)C[C@H]2F)cc1Br			PBM	>100 µM
c1ccc(-c2cccnc2)cc1		MTT / absorbance	SupT1	>1000 µM
Cc1ccncc1-c1noc(C2=CC3(CCN(CC4CCCO4)CC3)c3ccccc32)n1		resazurin	A549	31.5 µM
Nc1nc(NC2CC2)c2ncn([C@H]3C=C[C@@H](CO)C3)c2n1			2.2.15	130 µM
Cn1c2ccccc2c2c3c(c4c5ccccc5n(CCC#N)c4c21)CNC3=O			CD4+ T CELLS	37 µM
Nc1ncnc2c1ncn2C[C@H](O)CO			P4	>191 µM
Cc1cn([C@H]2C[C@H](N=[N+]=[N-])[C@@H](CO)O2)c(=O)[nH]c1=O			BFU-E	1.6 µM
CC(=O)c1cc(O)c(O)c(=O)cc1C	3 d	MTS	HepG2-NTCP-12	42.5 µM
C[C@H]1CCCC[C@@H]1Oc1cc(CCc2ccccc2)[nH]c(=O)c1I		XTT / absorbance	TZM-bl	>300 µM
Cc1[nH]nc(C(=O)N/N=C/c2ccccc2Cl)c1N=NN(C)C			VERO	0.65 µg/mL
Nc1nc2c(ncn2C[C@]2(CO)C[C@H]2CO)c(=O)[nH]1			TPA-stimulated BCBL-1	≥25 µM
C#C[C@@H](O)C1=C[C@@H](n2cnc3c(N)ncnc32)[C@H](O)[C@@H]1O			P4	>69 µM
O=C1c2c(O)cc(O)cc2O[C@H](c2ccc(O)cc2)[C@H]1c1c(O)cc(O)c2c(=O)cc(-c3ccc(O)c(O)c3)oc12		sulforhodamine / absorbance	ASK (Atlantic salmon kidney)	>50 µM
Cc1cc(=O)c2ccc(N=C=S)cc2o1		MTT	CEM-GFP	10.23 µM
CC(C)=CC[C@H]1C[C@@]2(C[C@H]3CCC(C)(C)C=C3C)C(=O)[C@](C(=O)c3ccccc3)(C(=O)C3=C2OC(C)(C)C=C3)C1(C)C		sulforhodamine / absorbance	ASK (Atlantic salmon kidney)	>50 µM
CC(C)OC(=O)[C@H](C)N[P@](=O)(OC[C@H]1O[C@@](C#N)(c2ccc3c(N)ncnn23)[C@](C)(O)[C@@H]1OC(=O)C(C)C)Oc1ccccc1		ATP	Lunet-CD81	>50 µM
O=c1[nH]c(=O)n([C@H]2C[C@H](F)[C@@H](CO)O2)cc1/C(Cl)=C/I			PBM	18.4 µM
Nc1ccn([C@@H]2C[C@@H](O)[C@H](CO)O2)c(=O)n1			CV-1	>100 µM
Cc1cc(=O)[nH]c(NC(=S)NC(=O)c2ccc(-c3ccccc3Cl)o2)n1		MTS	MDCK	>300 µM
CCN(CC)CCNc1ccc(C)c2sc3ccc(O)cc3c(=O)c12.I			VERO	0.81 µg/mL
CCOc1cc(OCC)nc(NC(=S)NC(=O)c2ccc(-c3ccc([N+](=O)[O-])cc3)o2)n1		MTS	MDCK	>300 µM
CCN(CC)c1ccc2nc3c4ccccc4c(=O)cc-3n(-c3ccccc3)c2c1			VERO	3.7 µg/mL
COc1cc(OC)nc(NC(=S)NC(=O)c2cccnc2)n1		MTS	MDCK	>300 µM
Nc1ncnc2c1ncn2C[C@@H](CO)OCP(=O)(O)O			TPA-stimulated BCBL-1	58 µM
CC(C)=CC[C@H]1C[C@]2(C[C@H]3CCC(C)(C)C=C3C)C(=O)C3=C(OC(C)(C)CC3)[C@@](C(=O)c3ccccc3)(C2=O)C1(C)C		sulforhodamine / absorbance	HT-29	>50 µM
CCOC(=O)C(NC(=O)c1ccccc1)(N1CCN(c2cc3c(cc2F)c(=O)c(C(=O)O)cn3C2CC2)CC1)C(F)(F)F			VERO	>62.5 µg/mL
Oc1cc(O)c2c(c1)O[C@@]1(c3cc(O)c(O)c(O)c3)Oc3cc(O)c4c(c3[C@@H]2[C@H]1O)O[C@H](c1ccc(O)c(O)c1)[C@@H](O)C4			Huh-7/3-1	18.5 µg/mL
COc1cc(OC)n2sc(=NC(=O)c3cccnc3Cl)nc2n1		MTS	MDCK	>300 µM
COc1ccc(Cc2noc(C3=CC4(CCN(CC5CCCO5)CC4)c4ccccc43)n2)cc1		resazurin	A549	10.2 µM
S=C(S)N1CCCCC1			VERO	8.3 µg/mL
CC(c1ccc2oc3ccccc3c2c1)n1cc(-c2ccc3oc4ccccc4c3c2)nn1		MTT	HEK293T	>50 µg/mL
Nc1nc2c(ncn2COC(CO)CO)c(=O)[nH]1			HSB-2	15 µg/mL
CC(C)(C)c1ccc(CN2CCC3(CC2)C(=O)Nc2ccccc23)cc1		resazurin	A549	>50 µM
C#C[C@H](O)C1=C[C@@H](n2cnc3c(N)ncnc32)[C@H](O)[C@@H]1O			P4	>104 µM
O=c1[nH]c(=O)n([C@H]2C[C@H](O)[C@@H](CO)O2)cc1C12B3B4B5B6B(B3B1B42)B1B5C61			BFU-E	57.1 µM
CCn1cc(C(=O)O)c(=O)c2cc(F)c(N3CCNCC3)nc21			VERO	>10 µg/mL
NC(=O)c1ncn([C@@H]2O[C@H](CO)[C@@H](O)[C@H]2O)n1		neutral red	Ava5	76 µM
CN(C)CCNC(=O)c1cccc2nc3c(ccc4ccccc43)nc12.Cl			VERO	0.63 µg/mL
Nc1cc(OCCOCP(=O)(O)O)nc(N)n1			HeLa S3	<10 µM
CC[N+](C)(CC)CCNc1cc2c(c3c(=O)c4ccccc4sc13)CCCC2			VERO	46.02 µg/mL
C=C[C@H](O)C1=C[C@@H](n2cnc3c(N)ncnc32)[C@H](O)[C@@H]1O			P4	>138 µM
CC/C(=N\NC(=O)c1ccncc1)c1ccc(Cl)cc1			VERO	>62.5 µg/mL
C[C@@]1(O)[C@H](O)[C@@H](CO)O[C@H]1n1cnc2c(N)ncnc21		ATP	Huh7	>90 µM
C=C1[C@H](CO)[C@@H](O)C[C@@H]1n1cnc2c(=O)[nH]c(N)nc21		MTT	HepG2 2.2.15	73 µM
O=c1[nH]c(=O)n([C@H]2C[C@H](F)[C@@H](CO)O2)cc1C#CI			PBM	25.6 µM
Cc1cn([C@H]2C[C@H](N=[N+]=[N-])[C@@H](COC(=O)C(=O)N[C@@H](CC(C)C)C(=O)O)O2)c(=O)[nH]c1=O		trypan blue	PBMC	20 µM
CCN(CC)CCN(C)c1ccc(CO)c2c1C(=O)c1ccccc1S2=O			VERO	4.53 µg/mL
C/C(=C\C=C\C(C)[C@H]1CC[C@@]2(C)[C@@H]3CC[C@H]4C(C)(C)C(=O)CC[C@]4(C)C3=CC[C@]12C)C(=O)O		XTT / absorbance	1A2	276 µM
Nc1nc(=O)n([C@H]2O[C@@H](CO)C[C@H]2F)cc1Br			PBM	>100 µM
Nc1nc2c(ncn2CCC(CO)CO)c(=O)[nH]1			SupT1	170 µM
C[C@H](O)C1=C[C@@H](n2cnc3c(N)ncnc32)[C@H](O)[C@@H]1O			P4	>36 µM
Cc1ccc(NCCC2CCCN3CCCCC23)c2c(=O)c3ccccc3sc12			VERO	1.92 µg/mL
Oc1cc(O)c2c(c1)O[C@H](c1ccc(O)c(O)c1)[C@H](O)C2			Huh-7/3-1	113.8 µg/mL
CCOc1cc(Cl)nc(NC(=S)NC(=O)c2cccnc2Cl)n1		MTS	MDCK	>300 µM
O=C(O)C(=O)CC(=O)c1cc(OCc2ccccc2)cc(OCc2ccccc2)c1		XTT	H9	90 µM
O=C/C=C/c1ccc([N+](=O)[O-])cc1Cl			VERO	6.8 µg/mL
CC[C@@H](O)C1=C[C@@H](n2cnc3c(N)ncnc32)[C@H](O)[C@@H]1O			P4	>68 µM
C[N+](C)=c1ccc2nc3c(cc(Nc4cccc(Nc5cc6oc7cc(=[N+](C)C)ccc-7nc6c6ccccc56)n4)c4ccccc43)oc-2c1			VERO	4.13 µg/mL
O=c1oc2ccccc2c2c1C(c1ccccn1)c1c(c3ccccc3oc1=O)O2		MTT / absorbance	SupT1	>1000 µM
Nc1ncnc2c1ncn2CCOCP(=O)(O)O			CD4+ T lymphocytes	54 µM
O=c1c2cc(O)ccc2oc2cc(O)cc(O)c12		sulforhodamine / absorbance	HT-29	>50 µM
Cc1cn([C@H]2C[C@H](N=[N+]=[N-])[C@@H](COC(=O)C(=O)O)O2)c(=O)[nH]c1=O		sulforhodamine	PBMC	300 µM
Nc1nc(OCCOCP(=O)(O)O)cc(OCCOCP(=O)(O)O)n1			L1210	<10 µM
COc1cc2c(cc1OC)[C@H](c1cc(OC)c(OC)c(OC)c1)[C@@H](C)[C@@H](C)C2			293T	>10 µM
CN(C)c1cc(=O)n(CCOCP(=O)(O)O)c(N)n1			L1210	<10 µM
COc1ccc(-c2cc(OC)c(O)c(OC)c2O)cc1		sulforhodamine / absorbance	ASK (Atlantic salmon kidney)	>50 µM
COc1ccc(-c2nc3c(=O)n(C)c(=O)nc-3n(C)n2)cc1OC			VERO	1.09 µg/mL
C[C@H](Cn1cnc2c(N)ncnc21)OCP(=O)(O)O		ATP	AD38	>50 µM
COc1ccc(-c2noc(C3=CC4(CCN(CCO)CC4)c4ccccc43)n2)cc1		resazurin	A549	2 µM
O=c1[nH]cnc2c1ncn2[C@H]1O[C@@H](CO)C[C@H]1F			PBM	>100 µM
Cc1cn([C@H]2C[C@H](N=[N+]=[N-])[C@@H](COC(=O)C(=O)NC(Cc3ccccc3)C(=O)O)O2)c(=O)[nH]c1=O		sulforhodamine	PBMC	300 µM
Cc1cc(CCN)c(C)c2c1oc1ccccc12			VERO	1.27 µg/mL
O=c1[nH]c(=O)n([C@@H]2O[C@@H](CO)C[C@H]2F)cc1F			PBM	>100 µM
Cn1cc(NC(=O)c2cc(NC(=O)CN=C(N)N)cn2C)c(C(=O)NCCC(=N)N)c1			PRK	40 µg/mL
O=C1c2ccccc2C(=O)c2sc(Nc3ccccc3Cl)nc21			VERO	2.8 µg/mL
O=c1ccn([C@@H]2O[C@H](CO)C[C@@H]2F)c(=O)[nH]1			PBM	>100 µM
CCOc1cc(C)nc(NC(=S)NC(=O)c2ccc(-c3ccccc3Cl)o2)n1		MTS	MDCK	>300 µM
Cn1ccc(-c2noc(C3=CC4(CCN(CC5CCCO5)CC4)c4ccccc43)n2)n1		resazurin	A549	68 µM
Cc1ccc(NC(=O)CCl)cc1Cl			VERO	0.4 µg/mL
Nc1ncnc2c1ncn2[C@@H]1C[C@@H](O)[C@H](CO)O1			CV-1	>100 µM
Nc1nc(OCCOCP(=O)(O)O)cc(=O)n1CCOCP(=O)(O)O			CCRF-CEM	<10 µM
COC(=O)NC(=S)NC(=O)NC(C)(C)C		MTS	MDCK	>300 µM
Cc1cn([C@H]2C[C@H](N=[N+]=[N-])[C@@H](COC(=O)c3ccncc3)O2)c(=O)[nH]c1=O		trypan blue	PBMC	10 µM
Cc1cn([C@@H]2C[C@@H](O)[C@H](CO)O2)c(=O)[nH]c1=O			MA-104	>100 µM
CC[C@H](CC[C@@H](C)[C@H]1CC[C@H]2[C@@H]3CC=C4C[C@@H](O)CC[C@]4(C)[C@H]3CC[C@]12C)C(C)C		MTT	L6 cells	6.2 µM
Nc1nc2c(ncn2COCCO)c(=O)[nH]1			CD4+ T lymphocytes	>250 µM
Nc1nccc2c1ncn2[C@@H]1CC[C@@H](O)[C@H]1O			P4	37 µM
Cc1ccc(NC(=S)NC(=O)C(C)Oc2ccccc2)cc1Cl			VERO	>10 µg/mL
Nc1nccc2c1ncn2[C@@H]1C[C@H](CO)[C@@H](O)[C@H]1O			P4	>37 µM
[N-]=[N+]=N[C@H]1C[C@H](n2cc(/C(I)=C\I)c(=O)[nH]c2=O)O[C@@H]1CO			PBM	18.6 µM
CC[n+]1c(-c2ccccc2)c2cc(N)ccc2c2ccc(N)cc21			VERO	17.08 µg/mL

The last 11 rows once more:

SMILES,setting,read by,cell line,value
Nc1nc(OCCOCP(=O)(O)O)cc(=O)n1CCOCP(=O)(O)O,,,CCRF-CEM,<10 µM
COC(=O)NC(=S)NC(=O)NC(C)(C)C,,MTS,MDCK,>300 µM
Cc1cn([C@H]2C[C@H](N=[N+]=[N-])[C@@H](COC(=O)c3ccncc3)O2)c(=O)[nH]c1=O,,trypan blue,PBMC,10 µM
Cc1cn([C@@H]2C[C@@H](O)[C@H](CO)O2)c(=O)[nH]c1=O,,,MA-104,>100 µM
CC[C@H](CC[C@@H](C)[C@H]1CC[C@H]2[C@@H]3CC=C4C[C@@H](O)CC[C@]4(C)[C@H]3CC[C@]12C)C(C)C,,MTT,L6 cells,6.2 µM
Nc1nc2c(ncn2COCCO)c(=O)[nH]1,,,CD4+ T lymphocytes,>250 µM
Nc1nccc2c1ncn2[C@@H]1CC[C@@H](O)[C@H]1O,,,P4,37 µM
Cc1ccc(NC(=S)NC(=O)C(C)Oc2ccccc2)cc1Cl,,,VERO,>10 µg/mL
Nc1nccc2c1ncn2[C@@H]1C[C@H](CO)[C@@H](O)[C@H]1O,,,P4,>37 µM
[N-]=[N+]=N[C@H]1C[C@H](n2cc(/C(I)=C\I)c(=O)[nH]c2=O)O[C@@H]1CO,,,PBM,18.6 µM
CC[n+]1c(-c2ccccc2)c2cc(N)ccc2c2ccc(N)cc21,,,VERO,17.08 µg/mL